Pooled drug test results. Numbers come from NIAID ChemDB, via PubChem.

All rows: target-level tests; species: Hepatitis C virus; protein: Nonstructural protein 5B; read-out: IC50

Rows are shuffled and stem from different studies. Two numbers with a dash give a range or band. ICn: concentration for n% inhibition.

C[C@@]1(O)[C@H](O)[C@@H](COP(=O)(O)OP(=O)(O)OP(=O)(O)O)O[C@H]1c1ccc2c(N)ncnn12 ; strain or isolate: GT5a ; read by: nucleotide incorporation ; value: 0.48 µM
COc1cc(OC)c(CCC2(C3CCCC3)CC(O)=C(Sc3nc4nc(C)cc(C)n4n3)C(=O)O2)cc1Cl ; value: <1 µM
CN(C)C(=O)Cn1c(-c2ccoc2)c(C2CCCCC2)c2ccc(C(=O)O)cc21 ; value: 0.018 µM
O=C(Nc1ccc2cn[nH]c2c1)c1cc(N2CCC(O)CC2)c(F)cc1F ; value: 0.1–1 µg/mL
O=C(O)c1ccc2c(c1)nc(-c1ccoc1)n2C1CCCCC1 ; value: 1.6 µM
CN1C(=O)[C@]23CC4=CC=C[C@H](O)[C@H]4N2C(=O)[C@@]1(CO)SS3 ; value: 230 µM
O=C(OC[C@H]1O[C@@H](n2cnc3c(=O)[nH]cnc32)[C@H](O)[C@@H]1O)c1ccc(S(=O)(=O)F)cc1 ; value: 80 µM
CN1CCN(c2cc(C(=O)Nc3ccc4[nH]ncc4c3)c(F)cc2F)CC1 ; value: >10 µg/mL
O=c1ccn([C@@H]2O[C@H](CO)[C@]3(CO)C[C@]23F)c(=O)[nH]1 ; read by: nucleotide incorporation ; setting: genotype 1b ; value: >100 µM
O=C(Nc1ccc2cn[nH]c2c1)c1cc(N2CCNCC2)c(F)cc1F ; value: >10 µg/mL
C[C@@]1(O)[C@H](O)[C@@H](COP(=O)(O)OP(=O)(O)OP(=O)(O)O)O[C@@]1(C#N)c1ccc2c(N)ncnn12 ; strain or isolate: 2a JFH-1 ; read by: radiometric ; value: 1.3 µM
NC(=O)c1ncn([C@@H]2O[C@H](COC(=O)c3ccc(S(=O)(=O)F)cc3)[C@@H](O)[C@H]2O)n1 ; value: 1000 µM
O=C(Nc1ccc2cn[nH]c2c1)c1cc(N2CCN(CCO)CC2)c(F)cc1F ; value: >10 µg/mL
Cc1c(-c2ccoc2)n(C2CCCCC2)c2ccc(C(=O)O)cc12 ; value: 0.88 µM
CCOC(=O)c1c(NC(=O)NS(=O)(=O)c2ccccn2)sc2c1CCC(C)(C)C2 ; value: 0.15 µM
CCCOc1ccc(CCC2(C3CCCC3)CC(=O)CC(=O)O2)cc1F ; value: 1–10 µM
Cc1nc(N)c2ncn([C@@H]3O[C@H](COC(=O)c4ccc(S(=O)(=O)F)cc4)[C@@H](O)[C@H]3O)c2n1 ; value: >1000 µM
O=C1CC(=O)OC(CCc2ccc(F)c(Cl)c2)(C2CCCC2)C1 ; value: 1–10 µM
O=C(Nc1ccc2[nH]ncc2c1)c1cc(N2CCC(O)CC2)c(F)cc1F ; value: 0.1–1 µg/mL
COc1ccc(CCC2(C3CCCC3)CC(O)=C(Sc3ccccc3)C(=O)O2)cc1Cl ; value: <1 µM
O=C(Nc1ccc2[nH]ncc2c1)c1cc(NCc2ccccn2)c(F)cc1F ; value: 1 µg/mL
CC(C)c1cccc(CCC2(C3CCCC3)CC(=O)CC(=O)O2)c1 ; value: 1–10 µM
Cc1cc2c(cc1C(=O)N[C@@H](Cc1c[nH]c3ccc(OCC(=O)O)cc13)C(=O)O)nc(-c1ccoc1)n2C1CCCCC1 ; value: 0.019 µM
CC(=O)c1ccc(CCC2(C3CCCC3)CC(O)=CC(=O)O2)cc1C ; value: 1–10 µM
O=C(Nc1ccc2cn[nH]c2c1)c1cc(NCc2ccccn2)c(F)cc1F ; value: 1 µg/mL
CC(C)Oc1ccc(CCC2(C3CCCC3)CC(=O)CC(=O)O2)cc1Cl ; value: <1 µM
O=C(OC[C@H]1O[C@@H](n2cnc3c(=O)[nH]cnc32)[C@H](O)[C@@H]1O)c1ccc(S(=O)(=O)F)cc1 ; value: 80 µM